Reference: paper PMC11856326, “Structure-activity studies of bispyridinium antinicotinics to select candidates to treat soman intoxication as part of a combined therapy” (2025)

Assays:
[1] = test system: guinea-pigs challenged with soman, sarin or tabun; settings: in combination with physostigmine and hyoscine; equimolar doses; cited from earlier work
[2] = test system: soman-poisoned guinea pig diaphragm; experiment: Diaphragm muscle assay: recovery of tetanic response in soman-poisoned phrenic nerve-hemidiaphragm

| Compound | protection against tabun in guinea pigs [1] | other results |
| --- | --- | --- |
| NC(=O)c1cc[n+](COC[n+]2ccccc2/C=N/O)cc1 | insufficient to provide protection | – |
| CC(C)(C)c1cc[n+](CCC[n+]2ccc(C(C)(C)C)cc2)cc1 | – | recovery of neuromuscular function (tetanus and twitch responses) ([2]; soman 100 nM, compounds at 10, 30 and 100 µM cumulatively, n = 4): maximum recovery |
| CC(C)(C)c1cc[n+](CCC[n+]2ccc(C(C)(C)C)cc2)cc1.CS(=O)(=O)[O-].CS(=O)(=O)[O-] | good protection | – |
| c1cc[n+](CCCCC[n+]2ccccc2)cc1 | – | concentrations that inhibited the response ([2]; broader concentration range, soman-poisoned diaphragm): over 300 µM |
